Data published in patent US20130261077A1 (priority 2012, published 2013).

The chains behind the UniProt entries cited, without tags or fusion partners. Residues count along the entry.
UniProt P08191, 22-177 limits assumed: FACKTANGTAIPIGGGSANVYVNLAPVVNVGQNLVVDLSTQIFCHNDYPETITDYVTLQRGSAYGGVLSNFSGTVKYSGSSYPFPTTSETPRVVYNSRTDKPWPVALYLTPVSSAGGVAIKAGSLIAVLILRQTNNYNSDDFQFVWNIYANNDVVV

Target: FimH-CRD (Escherichia coli, UniProt P08191)
Assay: Competitive binding assay by fluorescence polarization, assay 2 (compounds prepared by robotics, plates frozen and thawed)
Settings: read-out: Assay 2 Kd (μM) ± Standard error of the mean (number of repeats); 5 nM Alexa 647 mannoside probe, 60 nM FimH-CRD, 5 hrs at room temperature; robotics dilution, frozen plates
Protocol: The first 177 amino acids of the FimH protein were expressed as a fusion protein with thrombin in a pET21b plasmid in bacteria. This FimH protein sequence contains the carbohydrate recognition domain (CRD) and shall be termed FimH-CRD. Following bacterial expression of the protein, the FimH-CRD protein was purified to homogeneity and the thrombin tag removed by protease cleavage. A competitive binding assay by fluorescence polarization was performed using 5 nM of the Alexa 647 mannoside probe and 60 nM of the FimH-CRD. The samples are assayed in a low volume 384 well microtiter plate in a final volume of 20 μl. The final assay buffer conditions are the following, 50 mM Tris-Cl, ph 7.0, 100 mM NaCl, 1 mM EDTA, 5 mM β-mercaptoethanol, 0.05% BSA and 2.5% DMSO. Two assays are performed for FimH, termed assay 1 or assay 2. […] Plates are read using the SpectraMax Paradigm multi-mode plate reader and the appropriate fluorescent polarization detection cartridge (Alexa-647). […]
The Kd values of the compounds are determined from dose response curves using twelve concentrations per compound in duplicate. Curves are fitted to data points using Fluorescence Polarization competitive displacement analysis, and Kds are interpolated from the resulting curves using GraphPad Prism software, version […] (GraphPad software Inc., San Diego, Calif., USA).

For `Cc1nnc(-c2ccc(-c3cccc([C@H]4O[C@H](CO)[C@@H](O)[C@H](O)[C@@H]4O)c3C)c(C)c2)o1`, the Kd was 0.0228 µM.
